The source of these data is PMC7583907.

Test [1] concerns the target SARS-CoV-2 non-structural protein 10 (nsp10) (SARS-CoV-2) (UniProt P0DTD1). Put plainly: AUC.
Test [2] has the same target. As to the kind of experiment: SEC. In general terms: In gel filtration, larger molecules generally elute earlier.
Test [3] has the same target. As to the kind of experiment: SEC; analytical SEC, Superdex 75 Increase 10/300 GL, 50 mM Tris pH 8.0, 150 mM NaCl, 4 °C; nsp10 concentrated to 55 mg/mL, kept at 4 °C for 44 h, diluted to 3 mg/mL.
Test [4] has the same target. As to the kind of experiment: SEC; analytical SEC, Superdex 75 Increase 10/300 GL, 50 mM Tris pH 8.0, 150 mM NaCl, 4 °C; nsp10 concentrated to 55 mg/mL, kept at 4 °C for 20 h, diluted to 3 mg/mL.

Several values for one entry are separate records, joined by “and”; a condition that tells them apart may be missing. Equal values may be shown once.

As a reminder, the stoichiometry N is the number of molecules, sites or subunits per partner or assembly. Take “SARS-CoV-2 non-structural protein 10 (nsp10) (from UniProt P0DTD1 4264-4385) (domain or fragment)”: the percent monomer in test [1] is 74% to 100% and 53% to 68% (2×). Further, the stoichiometry N in test [1], in test [2], in test [3] and in test [4] was 2 in each case. In addition, the ratio of dimer to monomer (dimer:monomer) was determined as 0.02 in test [2], 0.1 in test [3] and 0.067 in test [4].
